A mixed list of measured activities; the numbers were collected in NIAID ChemDB.

Common to all: growth or infection tests; species: Aspergillus fumigatus

An empty or dashed field is not shown.

smiles | setting | read by | strain or isolate | read-out | result
CC(=O)N1CCN(c2ccc(OC[C@H]3CO[C@](Cn4ccnc4)(c4ccc(Cl)cc4Cl)O3)cc2)CC1 | - | broth dilution | ATCC 9142 | MIC | 200 µg/mL
C[C@H]1[C@H](O)[C@@H](C)/C=C/C=C/C=C/C=C/C=C/C=C/C=C/[C@H](O[C@@H]2O[C@H](C)[C@@H](O)[C@H](N)[C@@H]2O)C[C@@H]2O[C@](O)(C[C@@H](O)C[C@@H](O)CC[C@H](O)[C@@H](O)C[C@@H](O)CC(=O)O[C@H]1C)C[C@H](O)[C@H]2C(=O)O | - | - | 35 isolates | MFC90 | 16 µg/mL
CCCCCOc1ccc(-c2cc(-c3ccc(C(=O)N[C@H]4C[C@@H](O)[C@@H](O)NC(=O)[C@@H]5[C@@H](O)[C@@H](C)CN5C(=O)[C@H]([C@H](O)CC(N)=O)NC(=O)[C@H]([C@H](O)[C@@H](O)c5ccc(O)c(OS(=O)(=O)O)c5)NC(=O)[C@@H]5C[C@@H](O)CN5C(=O)[C@H]([C@@H](C)O)NC4=O)cc3)no2)cc1 | - | - | 29 isolates | MIC50 | 0.0078 µg/mL
CCCCCCCCC[C@@H]1CC(=O)NCC(=O)N[C@@H](CCCCN(C)C)C(=O)N[C@@H](C(C)C)C(=O)N1 | - | - | TIMM0063 | MIC | >128 µg/mL
CCOC1CC([C@H]2O[C@@H]3OC(C)(C)O[C@@H]3[C@H]2OC)=NO1 | - | - | - | MIC | >50 µg/mL
C[n+]1cccc(N(CCCCCC2CCCCC2)c2ccccc2C(F)(F)F)c1.[I-] | - | resazurin | ATCC 90906 | EC50 | >20 µg/mL
COc1cccc2oc3ccc(O)c(OC)c3c(=O)c12 | - | - | - | MIC80 | 16 µg/mL
CC(C)=CCc1ccc(C2C(=O)OC(Cc3ccc(O)cc3)C2C)cc1O | - | broth dilution | - | MIC100 | 34.13 µg/mL
Cc1ccc(C(C)C)c(O)c1 | - | - | F05 | MLC | 0.64 µg/mL
C[C@@H]1[C@@H](COCC(=O)O)C[C@@H](O[C@H]2[C@H](O)[C@@H](N(Cc3ccc(Cl)cc3)CC(O)C[N+](C)(C)C)[C@H](O[C@H]3[C@H](O)[C@@H](N(Cc4ccc(Cl)cc4)CC(O)C[N+](C)(C)C)[C@H](C)O[C@@H]3COCC(=O)O)O[C@@H]2COCC(=O)O)[C@H](N(Cc2ccc(Cl)cc2)CC(O)C[N+](C)(C)C)[C@H]1O | - | broth dilution | RCMB 02568 | MIC | 30.15 µg/mL
CC1(C)O[C@H]2[C@@H](O1)[C@@H](C1=NOC(Cc3ccc(O)cc3)C1)O[C@@H]1OC(C)(C)O[C@@H]12 | - | - | - | MIC | >50 µg/mL
C[C@H]1[C@H](O)[C@@H](C)/C=C/C=C/C=C/C=C/C=C/C=C/C=C/[C@H](O[C@@H]2O[C@H](C)[C@@H](O)[C@H](N)[C@@H]2O)C[C@@H]2O[C@](O)(C[C@@H](O)C[C@@H](O)CC[C@H](O)[C@@H](O)C[C@@H](O)CC(=O)O[C@H]1C)C[C@H](O)[C@H]2C(=O)O | - | broth dilution | ATCC 46645 | MIC | 2 µg/mL
COC(=O)C1CC([C@H]2O[C@@H]3OC(C)(C)O[C@@H]3[C@H]2OCc2ccccc2)=NO1 | - | - | - | MIC | >50 µg/mL
CCCCCCCCCCC[C@@H]1CC(=O)NCC(=O)N[C@@H](CCCCN)C(=O)N[C@@H](C(C)C)C(=O)N1 | - | - | TIMM0063 | MIC | 128 µg/mL
CCC(C)CC(C)CCCCCCCCC(=O)N[C@H]1C[C@@H](O)[C@H](NCCN)NC(=O)[C@@H]2[C@@H](O)CCN2C(=O)[C@H]([C@H](O)CCN)NC(=O)[C@H]([C@H](O)[C@@H](O)c2ccc(O)cc2)NC(=O)[C@@H]2C[C@@H](O)CN2C(=O)[C@H]([C@@H](C)O)NC1=O | - | - | MF5668 | MIC | <0.03 µg/mL
O=C1CSC2(CCc3ccccc32)N1n1c(COc2ccc(Cl)cc2Cl)n[nH]c1=S | - | - | - | MIC100 | 25 µg/mL
COc1ccccc1N(CCCCCC1CCCCC1)c1ccc[n+](C)c1.[I-] | - | resazurin | ATCC 90906 | EC50 | >20 µg/mL
CC1=CC[C@@H]2[C@H](C1)C2(C)C | - | - | F05 | MLC | 0.64 µg/mL
C[C@H]1[C@H](O)[C@@H](C)/C=C/C=C/C=C/C=C/C=C/C=C/C=C/[C@H](O[C@@H]2O[C@H](C)[C@@H](O)[C@H](N)[C@@H]2O)C[C@@H]2O[C@](O)(C[C@@H](O)C[C@@H](O)CC[C@H](O)[C@@H](O)C[C@@H](O)CC(=O)O[C@H]1C)C[C@H](O)[C@H]2C(=O)O | - | - | IAM2034 | MIC | 0.4 µg/mL
C[n+]1cccc(N(CCCCCC2CCCCC2)c2cccc(C#N)c2)c1.[I-] | - | resazurin | ATCC 90906 | EC50 | >20 µg/mL
O=C1CSC2(CCc3ccccc32)N1n1c(-c2ccc(Cl)cc2Cl)n[nH]c1=S | - | - | - | MIC100 | 6.25 µg/mL
C=C1CO[C@H]2[C@@H](C)OC(OC[C@@]34C[C@H]5[C@H](C)CC[C@@H]5[C@@]5(C=O)C[C@@H]3C=C(C(C)C)[C@@]45C(=O)O)C[C@@H]12 | - | - | - | MIC | >32 µg/mL
O=C1CSC2(CCc3ccccc32)N1n1c(-c2ccc([N+](=O)[O-])cc2)n[nH]c1=S | - | - | - | MIC100 | 25 µg/mL
CO[C@@H]1[C@H]2OC(C)(C)O[C@H]2O[C@@H]1C1=NOC(C)C1C(=O)O | - | - | - | MIC | >50 µg/mL
Cc1ccc(OCc2n[nH]c(=S)n2N2C(=O)CSC23CCc2ccccc23)cc1 | - | - | - | MIC100 | 6.25 µg/mL
CN[C@@H]1[C@H](O[C@@H]2OC[C@@H](O)[C@H](O)[C@H]2O)[C@@H](O)[C@H](O[C@H]2c3cc(C)c(C(=O)N[C@H](C)C(=O)O)c(O)c3-c3c(cc4c(c3O)C(=O)c3cc(OC)cc(O)c3C4=O)[C@@H]2O)O[C@@H]1C | - | - | IAM2034 | MIC | 1.6 µg/mL
CCOC(=O)C1CC([C@H]2O[C@@H]3OC(C)(C)O[C@@H]3[C@H]2OCc2ccccc2)=NO1 | - | - | - | MIC | >50 µg/mL
Cc1ccc(CN(CC(O)C[N+](C)(C)C)[C@@H]2[C@@H](O)[C@H](O[C@@H]3O[C@H](COCC(=O)O)[C@@H](O[C@@H]4C[C@H](COCC(=O)O)[C@@H](C)[C@H](O)[C@H]4N(Cc4ccc(C)cc4)CC(O)C[N+](C)(C)C)[C@H](O)[C@H]3N(Cc3ccc(C)cc3)CC(O)C[N+](C)(C)C)[C@@H](COCC(=O)O)O[C@H]2C)cc1 | - | broth dilution | RCMB 02568 | MIC | 125 µg/mL
CC(C)CCCCCCCCC1CC(=O)NCC(=O)N[C@@H](CCCN)C(=O)N[C@@H](C(C)C)C(=O)N1 | - | - | IFM41088 | MIC | >80 µg/mL
C[C@@H]1[C@@H](COCC(=O)O)C[C@@H](O[C@H]2[C@H](O)[C@@H](N(Cc3ccc(Br)cc3)CC(O)C[N+](C)(C)C)[C@H](O[C@H]3[C@H](O)[C@@H](N(Cc4ccc(Br)cc4)CC(O)C[N+](C)(C)C)[C@H](C)O[C@@H]3COCC(=O)O)O[C@@H]2COCC(=O)O)[C@H](N(Cc2ccc(Br)cc2)CC(O)C[N+](C)(C)C)[C@H]1O | - | broth dilution | RCMB 02568 | MIC | 20 µg/mL
C=C1/C=C(\CO)[C@H](CC)OC(=O)[C@H](C)C(=O)C(O)(CO)C/C(C)=C/[C@@H](C)C1 | - | - | MF5668 | MIC | >200 µg/mL
CN(c1cc2ccccc2[n+](C)c1)c1ccccc1Cl.[I-] | - | resazurin | ATCC 90906 | EC50 | >20 µg/mL
CCC(C)CCCCCCC1CC(=O)NCC(=O)N[C@@H](CCCN)C(=O)N[C@@H](C(C)C)C(=O)N1 | - | - | IFM4942 | MIC | >80 µg/mL
C[C@H]1[C@H](O)[C@@H](C)/C=C/C=C/C=C/C=C/C=C/C=C/C=C/[C@H](O[C@@H]2O[C@H](C)[C@@H](O)[C@H](N)[C@@H]2O)C[C@@H]2O[C@](O)(C[C@@H](O)C[C@@H](O)CC[C@H](O)[C@@H](O)C[C@@H](O)CC(=O)O[C@H]1C)C[C@H](O)[C@H]2C(=O)O | - | broth dilution / resazurin | - | MIC | 3.9 µg/mL
NC(=S)N/N=C/c1ccsc1/C=N/NC(N)=S | - | broth dilution | CB 11326 | MIC80 | >250 µg/mL
C[C@@H]1[C@@H](COCC(=O)O)C[C@@H](O[C@H]2[C@H](O)[C@@H](N(Cc3ccccc3)CC(O)C[N+](C)(C)C)[C@H](O[C@H]3[C@H](O)[C@@H](N(Cc4ccccc4)CC(O)C[N+](C)(C)C)[C@H](C)O[C@@H]3COCC(=O)O)O[C@@H]2COCC(=O)O)[C@H](N(Cc2ccccc2)CC(O)C[N+](C)(C)C)[C@H]1O | - | broth dilution | RCMB 02568 | MIC | 41.25 µg/mL
CCC1/C=C/C=C/C=C/C=C/C(OC2OC(C)C(O)C(N)C2O)CC2OC(O)(CC(O)CC(O)C(O)/C=C/C(=O)OC1C)CC(O)C2C(=O)O | - | broth dilution | CGMCC 3.3552 | MIC | 6.25 µg/mL
CCOC1CC([C@H]2O[C@@H]3OC(C)(C)O[C@@H]3[C@H]2OCc2ccccc2)=NO1 | - | - | - | MIC | >50 µg/mL
CO | - | - | - | MIC80 | >250 µg/mL
C[C@H]1[C@H](O)[C@@H](C)/C=C/C=C/C=C/C=C/C=C/C=C/C=C/[C@H](O[C@@H]2O[C@H](C)[C@@H](O)[C@H](N)[C@@H]2O)C[C@@H]2O[C@](O)(C[C@@H](O)C[C@@H](O)CC[C@H](O)[C@@H](O)C[C@@H](O)CC(=O)O[C@H]1C)C[C@H](O)[C@H]2C(=O)O | 48 h | broth dilution | ATCC 204305 | MIC100 | 0.5 µg/mL
CC(C)=CCc1c2c(c3oc4c(O)cccc4c(=O)c3c1O)C=CC(C)(C)O2 | - | - | - | MIC80 | 125 µg/mL
CCOC(=O)C1CC([C@H]2O[C@@H]3OC(C)(C)O[C@@H]3[C@H]3OC(C)(C)O[C@H]32)=NO1 | - | - | - | MIC | >50 µg/mL
CCCCCCCCC[C@@H]1CC(=O)NCC(=O)N[C@@H](CCCCN)C(=O)N[C@@H](C(C)C)C(=O)N1 | - | - | TIMM0063 | MIC | >128 µg/mL

For reference, 3 entries again:

smiles,setting,read by,strain or isolate,read-out,result
Cc1ccc(C(C)C)c(O)c1,-,-,F05,MLC,0.64 µg/mL
C=C1/C=C(\CO)[C@H](CC)OC(=O)[C@H](C)C(=O)C(O)(CO)C/C(C)=C/[C@@H](C)C1,-,-,MF5668,MIC,>200 µg/mL
COc1cccc2oc3ccc(O)c(OC)c3c(=O)c12,-,-,-,MIC80,16 µg/mL

MIC50, MIC90 and the like: level of inhibition, or share of isolates inhibited. ECn is the concentration giving n% inhibition of infection, replication or growth. Conditions beyond the fields shown may differ between rows.